Pooled drug test results. Numbers come from NIAID ChemDB, via PubChem.

Common to all: growth or infection tests; organism: Herpes simplex virus 2

ECn is the concentration giving n% inhibition of infection, replication or growth.

{"structure": "O=c1[nH]c(=O)n([C@H]2C[C@H](O)[C@@H](CO)S2)cc1C1CCCC1", "cell line": "E6SM", "strain": "G 196 LYONS", "read by": "cytopathic effect", "read-out": "EC50", "value": "676 µM"}
{"structure": "O=c1[nH]c(=S)n([C@H]2C[C@H](O)[C@@H](CO)O2)cc1F", "cell line": "MRC-5", "strain": "G", "read by": "plaque count", "read-out": "EC50", "value": "30.7 µM"}
{"structure": "Nc1nc2c(ncn2OCC/C=C\\P(=O)(O)O)c(=O)[nH]1", "cell line": "MRC-5", "strain": "MS", "read by": "plaque count", "read-out": "EC50", "value": ">300 µM"}
{"structure": "Nc1nccc2c1ncn2[C@@H]1C[C@H](CO)[C@@H](O)[C@H]1O", "cell line": "PRK", "strain": "G", "read by": "cytopathic effect", "read-out": "EC50", "value": ">400 µg/mL"}
{"structure": "O=c1c(O)c(-c2ccc(O)cc2)oc2cc(O)cc(O)c12", "cell line": "VERO", "read-out": "EC50", "value": "1 µg/mL"}
{"structure": "COc1cc(O)c(CC=C(C)C)c2c1C(=O)CC(c1ccc(O)cc1)O2", "cell line": "VERO", "read by": "cytopathic effect", "read-out": "EC50", "value": "17 µg/mL"}
{"structure": "Nc1ccn([C@@H]2C[C@@H](O)[C@H](CO)O2)c(=O)n1", "cell line": "HFF", "read-out": "EC50", "value": ">100 µM"}
{"structure": "Nc1nc2c(ncn2[C@H]2C=C[C@@H](CO)C2)c(=O)[nH]1", "cell line": "E6SM", "strain": "G", "read by": "cytopathic effect", "read-out": "EC50", "value": "1.3 µg/mL"}
{"structure": "C=C(/C=C/P(=O)(O)O)Cn1cnc2c(=O)[nH]c(N)nc21", "cell line": "MRC-5", "strain": "MS", "read by": "plaque count", "read-out": "EC50", "value": ">300 µM"}
{"structure": "Nc1nc(NC2CC2)c2ncn([C@H]3C=C[C@@H](COP4(=O)OCc5ccccc5O4)C3)c2n1", "cell line": "E6SM", "strain": "G", "read by": "cytopathic effect", "read-out": "EC50", "value": "7.2 µg/mL"}
{"structure": "O=C(O)CP(=O)(O)O", "strain": "G", "read by": "plaque count", "read-out": "EC50", "value": "190 µM"}
{"structure": "Nc1ccn(OC(/C=C/P(=O)(O)O)CO)c(=O)n1", "cell line": "MRC-5", "strain": "MS", "read by": "plaque count", "read-out": "EC50", "value": ">300 µM"}
{"structure": "NC(=O)c1ncn([C@@H]2O[C@H](CO)[C@@H](O)[C@H]2O)n1", "cell line": "PRK", "strain": "G", "read by": "cytopathic effect", "read-out": "EC50", "value": ">400 µg/mL"}
{"structure": "Nc1nccc2c1ncn2[C@@H]1O[C@H](CO)[C@@H](O)[C@H]1O", "cell line": "PRK", "strain": "G", "read by": "cytopathic effect", "read-out": "EC50", "value": "≥400 µg/mL"}
{"structure": "Nc1ncnc2c1ncn2[C@@H]1C[C@@H](O)[C@H](CO)O1", "cell line": "HFF", "read-out": "EC50", "value": ">100 µM"}
{"structure": "O=c1c(O)c(-c2ccccc2)oc2cc(O)cc(O)c12", "cell line": "VERO", "read-out": "EC50", "value": ">15 µg/mL"}
{"structure": "O=c1[nH]c(=O)n([C@H]2C[C@H](O)[C@@H](CO)S2)cc1C1CCC1", "cell line": "E6SM", "strain": "G 196 LYONS", "read by": "cytopathic effect", "read-out": "EC50", "value": "53 µM"}
{"structure": "CC1=C(C)[C@](CO)(c2ccccc2)C[C@H]1n1cnc2c(N)ncnc21", "cell line": "VERO", "read by": "cytopathic effect", "read-out": "EC50", "value": ">100 µg/mL"}
{"structure": "Nc1nc2c(ncn2OC(/C=C/P(=O)(O)O)CO)c(=O)[nH]1", "cell line": "MRC-5", "strain": "MS", "read by": "plaque count", "read-out": "EC50", "value": ">300 µM"}
{"structure": "Nc1nc2c(ncn2C[C@]2(CO)C[C@H]2CO)c(=O)[nH]1", "read-out": "EC50", "value": "0.1–1 µM"}
{"structure": "O=c1[nH]c(=O)n([C@H]2C[C@H](O)[C@@H](CO)O2)cc1/C=C/Br", "cell line": "VERO", "read by": "plaque count", "read-out": "EC50", "value": "8 µM"}
{"structure": "COC(=O)[C@H](C)NP(=O)(OC[C@H]1C/C1=C/n1cnc2c(=O)[nH]c(N)nc21)Oc1ccccc1", "cell line": "HFF", "read by": "plaque count", "read-out": "EC50", "value": "39.2 µM"}
{"structure": "O=c1[nH]c(=S)n([C@@H]2O[C@H](CO)[C@@H](O)[C@@H]2O)cc1Br", "cell line": "MRC-5", "strain": "G", "read by": "plaque count", "read-out": "EC50", "value": "62.8 µM"}
{"structure": "N/C(=N/O)c1cn([C@@H]2O[C@H](CO)[C@@H](O)[C@@H]2O)c2ncnc(N)c12", "cell line": "VERO", "strain": "MS", "read by": "plaque count", "read-out": "EC50", "value": ">100 µM"}
{"structure": "O=c1[nH]c(=O)n([C@H]2C[C@H](O)[C@@H](CO)S2)cc1C1CC1", "cell line": "E6SM", "strain": "G 196 LYONS", "read by": "cytopathic effect", "read-out": "EC50", "value": "2.6 µM"}
{"structure": "Nc1nc2c(ncn2COC(CO)CO)c(=O)[nH]1", "strain": "196", "read-out": "MIC", "value": "0.63 µM"}
{"structure": "CC(=O)Oc1cc(OC(C)=O)c2c(=O)c3ccccc3n(C)c2c1", "cell line": "HEF", "read by": "plaque count", "read-out": "EC50", "value": "8.4 µg/mL"}
{"structure": "Cc1cn([C@H]2C[C@H](O)[C@@H](CO)O2)c(=O)[nH]c1=O", "cell line": "MRC-5", "strain": "G", "read by": "plaque count", "read-out": "EC50", "value": ">413 µM"}
{"structure": "NC(=O)c1ncn([C@@H]2O[C@H](CO)[C@@H](O)[C@H]2O)c1C#CCO", "cell line": "PRK", "strain": "G", "read by": "cytopathic effect", "read-out": "EC50", "value": ">400 µg/mL"}
{"structure": "Nc1nc(N)c2ncn(CCOCP(=O)(O)O)c2n1", "cell line": "HEL", "strain": "HS-47", "read by": "cytopathic effect", "read-out": "EC50", "value": "2 µg/mL"}
{"structure": "CC(C)[C@H](NC(=O)[C@@H](N)Cc1ccccc1)C(=O)OCCOCn1cnc2c(=O)[nH]c(N)nc21", "strain": "196", "read-out": "MIC", "value": "1.6 µM"}
{"structure": "COc1cc(O)c2c(=O)c3ccc(OC)c(OC)c3n(C)c2c1", "cell line": "HEF", "read by": "plaque count", "read-out": "EC50", "value": ">20 µg/mL"}
{"structure": "Nc1nc2c(ncn2COCCOP2(=O)OCc3ccccc3O2)c(=O)[nH]1", "cell line": "E6SM", "strain": "G", "read by": "cytopathic effect", "read-out": "EC50", "value": "0.26 µg/mL"}
{"structure": "O=c1[nH]c(=O)n([C@H]2C[C@H](O)[C@@H](CO)O2)cc1C1CCCC1", "cell line": "E6SM", "strain": "G 196 LYONS", "read by": "cytopathic effect", "read-out": "EC50", "value": ">1200 µM"}
{"structure": "CCCCCc1c(OC)cc(O)c2c(=O)c3ccc(O)c(OC)c3n(C)c12", "cell line": "HEF", "read by": "plaque count", "read-out": "EC50", "value": "10 µg/mL"}
{"structure": "O=c1ccn([C@H]2C[C@H](O)[C@@H](CO)S2)c(=O)[nH]1", "cell line": "E6SM", "strain": "G 196 LYONS", "read by": "cytopathic effect", "read-out": "EC50", "value": "96 µM"}
{"structure": "Nc1ncnc2c1ccn2[C@@H]1O[C@H](CO)[C@H](O)[C@H]1O", "cell line": "PRK", "strain": "G", "read by": "cytopathic effect", "read-out": "EC50", "value": "0.07 µg/mL"}
{"structure": "C#Cc1c(C(N)=O)ncn1[C@@H]1O[C@H](CO)[C@@H](O)[C@H]1O", "cell line": "PRK", "strain": "G", "read by": "cytopathic effect", "read-out": "EC50", "value": ">400 µg/mL"}
{"structure": "N#Cc1cn([C@H]2C[C@H](O)[C@@H](CO)O2)c2ncnc(N)c12", "cell line": "PRK", "strain": "G", "read by": "cytopathic effect", "read-out": "EC50", "value": "0.3 µg/mL"}
{"structure": "O=C(O)P(=O)(O)O", "cell line": "SIRC", "strain": "V10183", "read by": "plaque count", "read-out": "EC50", "value": "<500 µM"}
{"structure": "Nc1ccn(C[C@@H](CO)OCP(=O)(O)O)c(=O)n1", "cell line": "HEL", "strain": "HS-44", "read by": "cytopathic effect", "read-out": "EC50", "value": "0.27 µg/mL"}
{"structure": "CCCCCc1c(O)cc(O)c2c(=O)c3ccccc3n(C)c12", "cell line": "HEF", "read by": "plaque count", "read-out": "EC50", "value": "10 µg/mL"}
{"structure": "Nc1ncnc2c1ncn2C[C@@H](CO)OCP(=O)(O)O", "cell line": "HEL", "strain": "HS-47", "read by": "cytopathic effect", "read-out": "EC50", "value": "0.11 µg/mL"}
{"structure": "COc1c(O)ccc2c(=O)c3c(O)cc4c(c3n(C)c12)C=CC(C)(C)O4", "cell line": "HEF", "read by": "plaque count", "read-out": "EC50", "value": "1.3 µg/mL"}
{"structure": "CC(C)[C@H](NC(=O)CN)C(=O)OCCOCn1cnc2c(=O)[nH]c(N)nc21", "strain": "196", "read-out": "MIC", "value": "1.3 µM"}
{"structure": "Nc1cc(OC[C@H](CO)OCP(=O)(O)O)nc(N)n1", "strain": "G", "read by": "cytopathic effect", "read-out": "EC50", "value": "51 µM"}
{"structure": "Nc1ncnc2c1ccn2[C@@H]1O[C@H](CO)[C@@H](O)[C@H]1O", "cell line": "PRK", "read by": "cytopathic effect", "read-out": "EC50", "value": ">0.1 µg/mL"}
{"structure": "O=C(O)P(=O)(O)O", "strain": "G", "read by": "plaque count", "read-out": "EC50", "value": "165 µM"}
{"structure": "COC(=O)[C@H](C)NP(=O)(OCC1C/C1=C\\n1cnc2c(N)ncnc21)Oc1ccccc1", "cell line": "VERO", "read by": "plaque count", "read-out": "EC50", "value": ">10 µM"}
{"structure": "C[C@H](Cn1cnc2c(N)ncnc21)OCP(=O)(O)O", "strain": "G", "read by": "cytopathic effect", "read-out": "EC50", "value": "≥350 µM"}
{"structure": "Nc1ncnc2c1ncn2C[C@@H](CO)OCP(=O)(O)O", "cell line": "HEL", "strain": "G", "read by": "cytopathic effect", "read-out": "EC50", "value": "0.08 µg/mL"}
{"structure": "Nc1ncnc2c1ncn2OCC/C=C/P(=O)(O)O", "cell line": "MRC-5", "strain": "MS", "read by": "plaque count", "read-out": "EC50", "value": ">300 µM"}
{"structure": "COc1cc2c(c3c1c(=O)c1cccc(OC)c1n3C)C=CC(C)(C)O2", "cell line": "HEF", "read by": "plaque count", "read-out": "EC50", "value": "5.5 µg/mL"}
{"structure": "Nc1nc2c(ncn2COC(CO)CO)c(=O)[nH]1", "cell line": "HEL", "strain": "G", "read by": "cytopathic effect", "read-out": "EC50", "value": "0.002 µg/mL"}
{"structure": "N=C(N)c1cn([C@H]2C[C@H](O)[C@@H](CO)O2)c2ncnc(N)c12", "cell line": "VERO", "strain": "MS", "read by": "plaque count", "read-out": "EC50", "value": "9 µM"}
{"structure": "CC(=O)Oc1cc(OC(C)=O)c2c(=O)c3ccccc3[nH]c2c1", "cell line": "HEF", "read by": "plaque count", "read-out": "EC50", "value": "6.5 µg/mL"}
{"structure": "CCCc1cn([C@H]2C[C@H](O)[C@@H](CO)S2)c(=O)[nH]c1=O", "cell line": "E6SM", "strain": "G 196 LYONS", "read by": "cytopathic effect", "read-out": "EC50", "value": "0.151 µM"}
{"structure": "NC(=O)c1csc([C@@H]2O[C@H](CO)[C@@H](O)[C@H]2O)n1", "cell line": "VERO", "strain": "MS", "read by": "cytopathic effect", "read-out": "EC50", "value": "160 µg/mL"}
{"structure": "Nc1ncnc2c1ccn2[C@H]1C[C@H](O)[C@@H](CO)O1", "cell line": "PRK", "strain": "G", "read by": "cytopathic effect", "read-out": "EC50", "value": "40 µg/mL"}
{"structure": "COC(=O)[C@H](C)NP(=O)(OC[C@H]1C/C1=C/n1cnc2c(N)nc(N)nc21)Oc1ccccc1", "cell line": "HFF", "read by": "plaque count", "read-out": "EC50", "value": "12.7 µM"}
{"structure": "CC(C)[C@H](N)C(=O)N[C@H](C(=O)OCCOCn1cnc2c(=O)[nH]c(N)nc21)C(C)C", "strain": "196", "read-out": "MIC", "value": "1.3 µM"}
{"structure": "Cc1cn([C@H]2C[C@H](O)[C@@H](CO)S2)c(=O)[nH]c1=O", "cell line": "E6SM", "strain": "G 196 LYONS", "read by": "cytopathic effect", "read-out": "EC50", "value": "0.036 µM"}
{"structure": "Nc1nc2c(ncn2CCC(CO)CO)c(=O)[nH]1", "read-out": "EC50", "value": "1–10 µM"}
{"structure": "COC(=O)[C@H](C)NP(=O)(OC[C@H]1C/C1=C/n1cnc2c(OC)nc(N)nc21)Oc1ccccc1", "cell line": "VERO", "read by": "plaque count", "read-out": "EC50", "value": "0.6 µM"}
{"structure": "O=c1[nH]c(=S)n([C@@H]2O[C@H](CO)[C@@H](O)[C@@H]2O)cc1Cl", "cell line": "MRC-5", "strain": "G", "read by": "plaque count", "read-out": "EC50", "value": "207 µM"}
{"structure": "CC1=C(C)C(CO)(CO)C[C@H]1n1ccc(N)nc1=O", "cell line": "VERO", "read by": "cytopathic effect", "read-out": "EC50", "value": ">100 µg/mL"}
{"structure": "Nc1ncnc2c1ncn2C[C@H](O)CO", "cell line": "PRK", "read by": "cytopathic effect", "read-out": "EC50", "value": ">400 µg/mL"}
{"structure": "Nc1nc2c(ncn2COCCO)c(=O)[nH]1", "cell line": "E6SM", "strain": "G", "read by": "cytopathic effect", "read-out": "EC50", "value": "0.09 µg/mL"}
{"structure": "Nc1ncnc2c1ncn2CCOCP(=O)(O)O", "strain": "G", "read by": "cytopathic effect", "read-out": "EC50", "value": "26 µM"}
{"structure": "Nc1nc(=S)n([C@H]2C[C@H](O)[C@@H](CO)O2)cc1I", "cell line": "MRC-5", "strain": "G", "read by": "plaque count", "read-out": "EC50", "value": "12.2 µM"}
{"structure": "C[C@H](NC(=O)CN)C(=O)OCCOCn1cnc2c(=O)[nH]c(N)nc21", "strain": "196", "read-out": "MIC", "value": "0.96 µM"}
{"structure": "O=C(O)C(F)P(=O)(O)O", "strain": "Lovelace", "read by": "plaque count", "read-out": "EC50", "value": "150 µM"}
{"structure": "COc1ccc2c(c1)COP(=O)(OC[C@@H]1C=C[C@H](n3cnc4c(NC5CC5)nc(N)nc43)C1)O2", "cell line": "E6SM", "strain": "G", "read by": "cytopathic effect", "read-out": "EC50", "value": "7.2 µg/mL"}
{"structure": "Nc1ccn(C[C@@H](CO)OCP(=O)(O)O)c(=O)n1", "cell line": "HEL", "strain": "G", "read by": "cytopathic effect", "read-out": "EC50", "value": "0.11 µg/mL"}
{"structure": "COC(=O)OP(=O)(CO[C@H](CO)Cn1cnc(N)nc1=O)OC(=O)OC", "strain": "Lyons strain", "read by": "cytopathic effect", "read-out": "EC50", "value": "0.068 µg/mL"}
{"structure": "COc1cc(O)c2c(=O)c3cccc(O)c3n(C)c2c1OC", "cell line": "HEF", "strain": "Aphidicolin-resistant", "read by": "plaque count", "read-out": "EC50", "value": "0.7 µg/mL"}
{"structure": "O=C(O)P(=O)(O)O", "cell line": "HEL", "strain": "PCV-resistant/B", "read by": "cytopathic effect", "read-out": "EC50", "value": "10 µg/mL"}

Lines come from different laboratories, so protocols vary. Two numbers with a dash give a range or band.